Assay results taken from the supplement of paper PMC9931576.
Human monoclonal antibodies against the spike receptor-binding domain (heavy:light variable regions). IC50 against pseudoviruses bearing the spike of naturally observed variants; lower = stronger; >10 µg/ml means not reached at the top dose. No active / inactive call. The stated detection limit is 0.0005 µg/ml; values near or below 0.001 µg/ml lie at the floor of the assay.

Tests used:
Experiment in all cases: pseudovirus neutralization IC50; higher = weaker neutralization
[1] = biological target: SARS-CoV-2 Omicron BA.1 spike pseudovirus
Method: (§1)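 Single-round VSV luciferase pseudovirus mixed with antibody dilutions for 1 h and put on Huh-7 cells for about a day; IC50 from the dose curve.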

[2] = biological target: SARS-CoV-2 Omicron BA.2 spike pseudovirus
Method: as §1

[3] = biological target: SARS-CoV-2 Omicron BA.2.75 spike pseudovirus
Method: as §1

[4] = biological target: SARS-CoV-2 Omicron BA.5 spike pseudovirus
Method: as §1

[5] = biological target: SARS-CoV-2 Omicron BQ.1.1 spike pseudovirus
Method: as §1

[6] = biological target: SARS-CoV-2 Omicron XBB spike pseudovirus
Method: as §1

[7] = biological target: SARS-CoV-2 early D614G spike pseudovirus
Method: as §1

B1: BD55-5620 (protein)
chain 1: QITLKESGPTLVKPTQTLTLTCTFSGFSLTATGMGVGWIRQPPEKALEWLALIYWLDDTRYSPSLESRLTLTKDTSKNQVVLTMTNMDPVDTGTYYCAHLYYDSSSGYDTTGPDAFDFWGQGTMVTVSP
chain 2: AIQITQSPSSLSASPGDTVTITCRASQPITNFLAWYQQRRGRAPKLLIHSASTLQSGVPWRFSGSGSGTHFTLTIRGLQSEDFATYYCQQYLSYPPTFGHGTKVEF
pseudovirus neutralization IC50 [1]: > 10 µg/mL | pseudovirus neutralization IC50 [2]: > 10 µg/mL | pseudovirus neutralization IC50 [3]: > 10 µg/mL | pseudovirus neutralization IC50 [4]: > 10 µg/mL | pseudovirus neutralization IC50 [5]: > 10 µg/mL | pseudovirus neutralization IC50 [6]: > 10 µg/mL | pseudovirus neutralization IC50 [7]: 0.0416 µg/mL

B2: BD55-5631 (protein)
chain 1: QVQLVQSGAEVKKPGSSVRVSCKASGSTFSTHAISWVRQAPGQGLEWVGRIVPILDMTNYAQKFQGRVTITADKSTSTAYMELSSLRSDDTAVYYCARYKWNDGDSYYYVMDVWGQGTTVIVSS
chain 2: DIQMTQSPSSLSASVGDRVTITCRASQAINTYLLWYQQKPGKAPNLLIYGASSLQSGVPSRFSGSGSGTDFTLTISSLQPEDFATYYCQQSYTTPTFGQGTRLEIK
pseudovirus neutralization IC50 [1]: > 10 µg/mL | pseudovirus neutralization IC50 [2]: > 10 µg/mL | pseudovirus neutralization IC50 [3]: > 10 µg/mL | pseudovirus neutralization IC50 [4]: > 10 µg/mL | pseudovirus neutralization IC50 [5]: > 10 µg/mL | pseudovirus neutralization IC50 [6]: > 10 µg/mL | pseudovirus neutralization IC50 [7]: 0.00138 µg/mL

B3: BD55-5634 (protein)
chain 1: QVQLVQSGSELKKPGASVKVSCKASGYIFTSYAINWVRQAPGQGLEWMGWIITNSGNPTYAQGFTGRFVFSLDTSVNTAYLQISSLKPEDTGVYYCARFSYLPPEELPYFDWSAHYYYYYAMDVWGQGTTVTVSS
chain 2: QSALTQPASVSGSPGQSITVSCTGTSSDVGAHNLVSWYQQYPGKAPKVMIYEDTKRPSGVSSRFSGSKSGNTASLTISGLQAEDEAAYYCFSYASSRSVVFGGGTKLTVL
pseudovirus neutralization IC50 [1]: > 10 µg/mL | pseudovirus neutralization IC50 [2]: > 10 µg/mL | pseudovirus neutralization IC50 [3]: > 10 µg/mL | pseudovirus neutralization IC50 [4]: > 10 µg/mL | pseudovirus neutralization IC50 [5]: > 10 µg/mL | pseudovirus neutralization IC50 [6]: > 10 µg/mL | pseudovirus neutralization IC50 [7]: 0.001 µg/mL

B4: BD55-5638 (protein)
chain 1: QIQLVQSGAEVKKPGASVKVSCKASGYNFRSYGISWVRQAPGQGLEWMGWISGYDGNTEYKQNFQGRVTMTTDTSTSTAYMELRSLRSDDTAVFYCARDRVYSGYDSTDMNPQGDYWGQGTLVTVSS
chain 2: DIQMAQSPSTLSASVGDRVSITCRTSQSVSDLLAWYQQKPGKAPKLLIYKTSSLESGVPSRFSGSGSGTDFTLTISSLQPDDIATYYCQQYKFYWTFGQGTRVEIK
pseudovirus neutralization IC50 [1]: > 10 µg/mL | pseudovirus neutralization IC50 [2]: > 10 µg/mL | pseudovirus neutralization IC50 [3]: > 10 µg/mL | pseudovirus neutralization IC50 [4]: > 10 µg/mL | pseudovirus neutralization IC50 [5]: > 10 µg/mL | pseudovirus neutralization IC50 [6]: > 10 µg/mL | pseudovirus neutralization IC50 [7]: 0.473 µg/mL

B5: BD55-5643 (protein)
chain 1: QVQLVQSGSELKKPGASVKLSCKASGNTFTNYAMNWVRQAPGQGLEWMGWVNTNTGHPTYAQGFTGRFVFSFDTSVNTAYLQISSLKTEDTAVYYCAGSNWNDYWFDPWGQGTLVTVSS
chain 2: EIVMTQSPATLSVSPGERATLSCRASYSLSNNLAWYQQKPGQAPRLLIYDASTRATGFPARFSGSGSGTEFSLTISSLQSEDVAVYYCQQYTSWPLTFGQGTKVEI
pseudovirus neutralization IC50 [1]: 1.9 µg/mL | pseudovirus neutralization IC50 [2]: 1.2 µg/mL | pseudovirus neutralization IC50 [3]: 6.19 µg/mL | pseudovirus neutralization IC50 [4]: 1.32 µg/mL | pseudovirus neutralization IC50 [5]: > 10 µg/mL | pseudovirus neutralization IC50 [6]: > 10 µg/mL | pseudovirus neutralization IC50 [7]: 0.00124 µg/mL

B6: BD55-5659 (protein)
chain 1: EVQLVESGGDLVQPGRSLRLSCAASGFTFDDYAMHWVRQGPGKGLEWVSGITWNSGSIGYADSVKGRFTISRDNAKNSLYLQMNSLRAEDTALYYCVKDTFRSGSYPWAFDLWGQGTMVTVSS
chain 2: EIVLTQSPATLSLSPGERATLSCRASQSVRSFLAWYQQKPGQAPRLLIYDASNRATGIPARFSGSGSGTSFTLTISSLEPEDFAVYYCQQRSDWRGTFGPGTKVDIK
pseudovirus neutralization IC50 [1]: > 10 µg/mL | pseudovirus neutralization IC50 [2]: > 10 µg/mL | pseudovirus neutralization IC50 [3]: > 10 µg/mL | pseudovirus neutralization IC50 [4]: > 10 µg/mL | pseudovirus neutralization IC50 [5]: > 10 µg/mL | pseudovirus neutralization IC50 [6]: > 10 µg/mL | pseudovirus neutralization IC50 [7]: 0.00117 µg/mL
